The values that follow come from ChEMBL document CHEMBL1828562, “Aryl H-phosphonates 17: (N-aryl)phosphoramidates of pyrimidine nucleoside analogues and their synthesis, selected properties, and anti-HIV activity” (J Med Chem, 2011).

In data set [1] the test system is Human immunodeficiency virus 1. Briefly: Antiviral activity against HIV1 infected in human CEM-T4 cells assessed as reduction in viral protein p24 production preincubated for 24 hrs measured after 8 days by MTT assay. Particulars: for EC50: cem-t4. A general note: Tetrazolium dyes change colour on reduction, which living cells bring about.
Data set [2] is described as follows: Selectivity index, ratio of CC50 for human CEM-T4 cells to EC50 for HIV1 infected human CEM-T4 cells.

In general, EC90 refers to the point of the concentration-response curve where the effect stands at 90%. As usually defined, the EC50 is the concentration at which the effect is half-maximal. Turning to `O=c1ccn([C@H]2CC[C@@H](COP(=O)(O)Nc3ccccn3)O2)c(=O)[nH]1`, in data set [1], the 90% effect concentration (EC90) is over 10 µM and the concentration giving a half-maximal response (EC50) is over 10 µM. In addition, in data set [2], the Ratio CC50/EC50 was under 3.

Take `Cc1cn([C@H]2C[C@H](N=[N+]=[N-])[C@@H](COP(=O)(O)Nc3ccccn3)O2)c(=O)[nH]c1=O`: in data set [1], the EC90 stood at 0.029 µM and the EC50 came out at 0.0024 µM. The Ratio CC50/EC50 in data set [2] is over 83500.
